{"source": "PubChem BioAssay AID624099 (ICCB-Longwood, 2012)", "screen": "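Host factors E2 relies on to silence an HPV18 LCR reporter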 (primary screen)", "cell system": "human C33A cervical carcinoma cells (HPV-negative) stably expressing BPV1 E2 and an HPV18 LCR luciferase reporter", "reagents": "siRNA pool against human genes, 40 nM", "time to read-out": "72 h", "read-out": "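HPV18 LCR reporter light per well, converted to plate-wise z-scores that exclude control wells, and averaged over triplicate plates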", "reading the numbers": "mean z-score and z-score: higher = stronger reporter signal, weaker E2 silencing", "hit rule": "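Hit if mean z-score reaches 2 and two or more of three replicate z-scores also reach 2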", "note": "This is a random part of about 21,000 reagents. In the full data, 497 (2.4%) were called active. 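Higher z means weaker E2 silencing; only reporter increases were scored, and knock-downs that hurt cell survival may mask genuine repressor factors.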 Unmarked entries are inactive."}
{"gene": "SLC9C2", "mean z-score": -0.19, "z-score, replicate A": -0.42, "z-score, replicate B": -0.23, "z-score, replicate C": 0.08}
{"gene": "PIDD1", "mean z-score": 0.5, "z-score, replicate A": 0.63, "z-score, replicate B": 0.49, "z-score, replicate C": 0.37}
{"gene": "ARL16", "mean z-score": 1.57, "z-score, replicate A": 1.89, "z-score, replicate B": 1.87, "z-score, replicate C": 0.94}
{"gene": "RSRC2", "mean z-score": -1.52, "z-score, replicate A": -1.32, "z-score, replicate B": -1.52, "z-score, replicate C": -1.73}
{"gene": "BOC", "mean z-score": 0.22, "z-score, replicate A": 0.26, "z-score, replicate B": 0.44, "z-score, replicate C": -0.05}

2 neighbouring entries already listed:
{"gene": "RSRC2", "mean z-score": -1.52, "z-score, replicate A": -1.32, "z-score, replicate B": -1.52, "z-score, replicate C": -1.73}
{"gene": "BOC", "mean z-score": 0.22, "z-score, replicate A": 0.26, "z-score, replicate B": 0.44, "z-score, replicate C": -0.05}

Further results follow:
{"gene": "ARRDC4", "mean z-score": -0.68, "z-score, replicate A": -0.64, "z-score, replicate B": -0.77, "z-score, replicate C": -0.64}
{"gene": "DNASE1", "mean z-score": -0.81, "z-score, replicate A": -0.36, "z-score, replicate B": -0.85, "z-score, replicate C": -1.22}
{"gene": "MACROH2A2", "mean z-score": -1.4, "z-score, replicate A": -1.49, "z-score, replicate B": -1.38, "z-score, replicate C": -1.33}
{"gene": "CNPY2", "mean z-score": "2.09 (active)", "z-score, replicate A": 1.92, "z-score, replicate B": 2.25, "z-score, replicate C": 2.1}
{"gene": "IFT46", "mean z-score": 0.92, "z-score, replicate A": 0.65, "z-score, replicate B": 0.99, "z-score, replicate C": 1.11}
{"gene": "TREML4", "mean z-score": 1.26, "z-score, replicate A": 1, "z-score, replicate B": 1.31, "z-score, replicate C": 1.47}
{"gene": "MAPK8IP3", "mean z-score": -0.55, "z-score, replicate A": -1.06, "z-score, replicate B": -0.13, "z-score, replicate C": -0.45}
{"gene": "HCN1", "mean z-score": -1.4, "z-score, replicate A": -1.34, "z-score, replicate B": -1.25, "z-score, replicate C": -1.61}
{"gene": "FNDC5", "mean z-score": 0, "z-score, replicate A": 0.36, "z-score, replicate B": -0.11, "z-score, replicate C": -0.25}
